{"source": "PubChem BioAssay AID504761 (Drosophila RNAi Screening Center, 2011)", "purpose": "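Fly genes whose silencing reduces dengue virus type 2 infection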 (primary screen)", "cells": "D.Mel-2 cells from Drosophila", "knock-down reagent": "long dsRNA against Drosophila genes", "treatment": "infection with dengue virus type 2; dose and infection time not stated", "read-out": "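Cells stained for dengue envelope protein and imaged; percent of infected cells per well on duplicate plates, ranked by infection, with stained nuclei counted for cell number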", "scale": "infection score: higher = more virus-infected cells; cell count: higher = more cells in the well", "rule for the call": "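Very low infection ranking in both replicate wells (chance probability at most 0.065), then a retest showing infection dropped 1.5-fold or more at p below 0.05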", "meaning of the calls": "active = confirmed: knock-down lowers infection; inactive = not picked or not confirmed", "note": "The screen tested about 22,000 reagents; shown is a random part of those that have a named target and a result. Over the whole deposit, 116 (0.52%) were called active. 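Calls depend on retest data that are not deposited; infection was ranked per plate without normalising between plates; the unit of the infection score is not given.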 The raw values are shown without normalisation. Further read-outs or replicates are left out here. Not stated in the record: the amount of reagent, the time to read-out."}
The opening 2 records as a preview:
{"target gene": "CR32028 (retired record)", "DRSC id": "DRSC22959", "infection score, replicate 1": 1.09, "cell count, replicate 1": 6431, "outcome": "inactive"}
{"target gene": "CR32028 (retired record)", "DRSC id": "DRSC25400", "infection score, replicate 1": 2.55, "cell count, replicate 1": 6149, "outcome": "inactive"}

Main list, from the start:
{"target gene": "CR32028 (retired record)", "DRSC id": "DRSC22959", "infection score, replicate 1": 1.09, "cell count, replicate 1": 6431, "outcome": "inactive"}
{"target gene": "CR32028 (retired record)", "DRSC id": "DRSC25400", "infection score, replicate 1": 2.55, "cell count, replicate 1": 6149, "outcome": "inactive"}
{"target gene": "vkg (viking)", "DRSC id": "DRSC03632", "infection score, replicate 1": 1.42, "cell count, replicate 1": 6064, "outcome": "inactive"}
{"target gene": "tgy (twiggy)", "DRSC id": "DRSC20045", "infection score, replicate 1": 12.8, "cell count, replicate 1": 6062, "outcome": "inactive"}
{"target gene": "Dip-C (Dipeptidase C)", "DRSC id": "DRSC15855", "infection score, replicate 1": 10.6, "cell count, replicate 1": 3966, "outcome": "inactive"}
{"target gene": "5PtaseI (Inositol polyphosphate-5-phosphatase type I)", "DRSC id": "DRSC16269", "infection score, replicate 1": 3.5, "cell count, replicate 1": 6545, "outcome": "inactive"}
{"target gene": "5PtaseI (Inositol polyphosphate-5-phosphatase type I)", "DRSC id": "DRSC22090", "infection score, replicate 1": 1.01, "cell count, replicate 1": 6548, "outcome": "inactive"}
{"target gene": "5PtaseI (Inositol polyphosphate-5-phosphatase type I)", "DRSC id": "DRSC28773", "infection score, replicate 1": 1.07, "cell count, replicate 1": 749, "outcome": "inactive"}
{"target gene": "Ent2 (Equilibrative nucleoside transporter 2)", "DRSC id": "DRSC02124", "infection score, replicate 1": 1.38, "cell count, replicate 1": 6471, "outcome": "inactive"}
{"target gene": "Ent2 (Equilibrative nucleoside transporter 2)", "DRSC id": "DRSC28879", "infection score, replicate 1": 8.83, "cell count, replicate 1": 2242, "outcome": "inactive"}
{"target gene": "Nmdar1 (NMDA receptor 1)", "DRSC id": "DRSC12071", "infection score, replicate 1": 5.65, "cell count, replicate 1": 6496, "outcome": "inactive"}
{"target gene": "Nmdar1 (NMDA receptor 1)", "DRSC id": "DRSC12356", "infection score, replicate 1": 16, "cell count, replicate 1": 5658, "outcome": "inactive"}
{"target gene": "Nmdar1 (NMDA receptor 1)", "DRSC id": "DRSC24657", "infection score, replicate 1": 2.41, "cell count, replicate 1": 5685, "outcome": "inactive"}
